## Sequence variants of PSTVd loop 6 after infection

The pool varies loop 6 of the PSTVd intermediate strain in the pattern UNNNCGNNNG; wild type is UGACCGCGAG (upper and lower strand joined, each 5' to 3', the first 5 letters being the upper strand, closing pairs included).

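Three N. benthamiana plants were inoculated with the whole mutant pool. Progeny were sequenced from the inoculated region (day 5), the margin of the inoculated leaf (day 10) and systemic leaves (day 12).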

Values are reads per thousand in the sample; higher means more abundant, 0 means not found. Each value is the mean of three plants. "Pool" is the share in the plasmid pool used as inoculum, on the same scale. The inoculated region was read from the minus strand, the other sites from the plus strand. With 36,220-57,551 reads a sample, very low values are single reads. Wild type was 20.7 per thousand in the pool and the most common sequence in every sample (inoculated region 195, 198, 203; leaf margin 629, 591, 734; systemic leaves 942, 870, 868). Sequences that differ at fixed positions probably stem from PCR or sequencing errors, and defective variants can be carried along by functional ones.

| sequence | pool | inoculated region | leaf margin | systemic leaves |
|---|---|---|---|---|
| UGAUCGGUGG | 0.288 | 0.0773 | 0.0168 | 0 |
| UAGACGCCGG | 0.105 | 0.0471 | 0 | 0 |
| UGCGCGACCG | 0.222 | 0.107 | 0 | 0 |
| UAUCCGAGUG | 0.183 | 0.131 | 0 | 0 |
| UACGCGUAUG | 0.222 | 0.113 | 0.0460 | 0 |
| UCAACGCUCG | 0.261 | 0.130 | 0 | 0 |
| UCUACGUACG | 0.222 | 0.0887 | 0.0169 | 0 |
| UAGUCGCCAG | 0.157 | 0.101 | 0.00773 | 0 |
| UUACCGCAUG | 0.144 | 0.137 | 0.00773 | 0 |
| UUCACGGAGG | 0.235 | 0.107 | 0.00773 | 0 |
| UUAUCGCAGG | 0.170 | 0.0539 | 0 | 0 |
| UUUGCGUUAG | 0.458 | 0.0719 | 0 | 0 |
| UCCUCGACCG | 0.157 | 0.0831 | 0 | 0 |
| UCGACGCCAG | 0.170 | 0.0961 | 0.00920 | 0 |
| UCGACGAUUG | 0.314 | 0.114 | 0 | 0 |
| UGGGCGCUGG | 0.118 | 0.0589 | 0 | 0 |
| UUGGCGCAAG | 0.209 | 0.108 | 0 | 0 |
| UACCCGAAUG | 0.196 | 0.0835 | 0 | 0 |
| UUAACGGCUG | 0.327 | 0.114 | 0 | 0 |
| UUGACGCAGG | 0.235 | 0.119 | 0.00773 | 0 |
| UCCACGCAUG | 0.131 | 0.0900 | 0 | 0 |
| UUAACGUGAG | 0.235 | 0.799 | 0.149 | 0.0407 |
| UCCCCGAAUG | 0.497 | 0.0481 | 0.00773 | 0 |
| UCGGCGCCGG | 0.248 | 0.0957 | 0 | 0 |
| UGUCCGCGCG | 0.209 | 0.154 | 0.00920 | 0 |
| UCUGCGAUAG | 0.288 | 0.130 | 0.0619 | 0 |
| UCUUCGGAUG | 0.170 | 0.113 | 0 | 0 |
| UUCACGCGAU | 0.0131 | 0.0246 | 0 | 0 |
| UAGACGAAAG | 0.144 | 0.0766 | 0 | 0 |
| UAGGCGUUGG | 0.248 | 0.137 | 0.00773 | 0 |
| UCAUCGUCUG | 0.196 | 0.101 | 0.00920 | 0 |
| UGCCCGAAUG | 0.196 | 0.0894 | 0.00920 | 0 |
| UGGGCGGAGU | 0.0261 | 0 | 0 | 0 |
| UCCGCGCAUG | 0.157 | 0.0779 | 0 | 0 |
| UGUACGCUAG | 0.118 | 0.113 | 0.0169 | 0.00684 |
| UGGCCGCAGG | 0.118 | 0.132 | 0.0232 | 0 |
| UUACCGUCAG | 0.209 | 0.711 | 0.0831 | 0 |
| UAUUCGAGCG | 0.301 | 0.0473 | 0 | 0 |
| UAACCGCCGG | 0.183 | 0.0900 | 0.00773 | 0 |
| UUAGCGUCAG | 0.261 | 0.506 | 0.0936 | 0 |
| UUAUCGAACG | 0.275 | 0.601 | 0.00920 | 0 |
| UUCACGCUUG | 0.248 | 0.0949 | 0.00773 | 0 |
| UCGUCGGACC | 0.0131 | 0 | 0 | 0 |
| UGACAGGCUG | 0.0131 | 0.00599 | 0.00773 | 0 |
| UGGUCGGAUG | 0.170 | 0.0712 | 0.0276 | 0.00599 |
| UCCACGUACG | 0.314 | 0.0648 | 0 | 0 |
| UCUCCGACAG | 0.131 | 0.102 | 0.00920 | 0 |
| UGAUCUCAUA | 0.0131 | 0 | 0 | 0.0205 |
| UGACUGGCCG | 0.0131 | 0 | 0 | 0 |
| UUAACGAUGG | 0.314 | 0.0965 | 0.00920 | 0 |
| UGCACGCCAG | 0.261 | 0.107 | 0.00920 | 0.0323 |
| UUAGCGACAG | 0.484 | 0.107 | 0 | 0.00684 |

Values reported by Wu et al. 2024 (doi:10.1371/journal.ppat.1012142).